Publication PMC4379099 (PLoS Pathogens, 2015)
Only a part of the results on these compounds is given; other tests are left out.

Amino acid sequences for entries named in this document (tags omitted). Residues count along the entry.
UniProt C0LGT6, 25-649 limits assumed: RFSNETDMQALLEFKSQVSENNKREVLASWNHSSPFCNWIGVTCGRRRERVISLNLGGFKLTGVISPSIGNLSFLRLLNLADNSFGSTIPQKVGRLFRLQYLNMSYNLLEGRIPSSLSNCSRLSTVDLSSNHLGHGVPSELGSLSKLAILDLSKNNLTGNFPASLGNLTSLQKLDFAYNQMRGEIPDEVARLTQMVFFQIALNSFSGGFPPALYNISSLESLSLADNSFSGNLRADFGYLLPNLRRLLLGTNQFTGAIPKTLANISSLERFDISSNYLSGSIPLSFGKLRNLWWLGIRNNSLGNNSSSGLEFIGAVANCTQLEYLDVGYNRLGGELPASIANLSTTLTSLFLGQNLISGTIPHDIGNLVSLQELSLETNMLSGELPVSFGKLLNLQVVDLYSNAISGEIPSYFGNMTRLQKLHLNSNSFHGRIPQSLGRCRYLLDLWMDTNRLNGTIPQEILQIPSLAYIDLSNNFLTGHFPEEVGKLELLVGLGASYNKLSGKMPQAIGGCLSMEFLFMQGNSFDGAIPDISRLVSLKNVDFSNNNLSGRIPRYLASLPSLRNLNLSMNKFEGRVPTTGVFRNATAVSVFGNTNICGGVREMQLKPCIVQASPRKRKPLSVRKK
UniProt C0LGT6, 25-1031 limits assumed: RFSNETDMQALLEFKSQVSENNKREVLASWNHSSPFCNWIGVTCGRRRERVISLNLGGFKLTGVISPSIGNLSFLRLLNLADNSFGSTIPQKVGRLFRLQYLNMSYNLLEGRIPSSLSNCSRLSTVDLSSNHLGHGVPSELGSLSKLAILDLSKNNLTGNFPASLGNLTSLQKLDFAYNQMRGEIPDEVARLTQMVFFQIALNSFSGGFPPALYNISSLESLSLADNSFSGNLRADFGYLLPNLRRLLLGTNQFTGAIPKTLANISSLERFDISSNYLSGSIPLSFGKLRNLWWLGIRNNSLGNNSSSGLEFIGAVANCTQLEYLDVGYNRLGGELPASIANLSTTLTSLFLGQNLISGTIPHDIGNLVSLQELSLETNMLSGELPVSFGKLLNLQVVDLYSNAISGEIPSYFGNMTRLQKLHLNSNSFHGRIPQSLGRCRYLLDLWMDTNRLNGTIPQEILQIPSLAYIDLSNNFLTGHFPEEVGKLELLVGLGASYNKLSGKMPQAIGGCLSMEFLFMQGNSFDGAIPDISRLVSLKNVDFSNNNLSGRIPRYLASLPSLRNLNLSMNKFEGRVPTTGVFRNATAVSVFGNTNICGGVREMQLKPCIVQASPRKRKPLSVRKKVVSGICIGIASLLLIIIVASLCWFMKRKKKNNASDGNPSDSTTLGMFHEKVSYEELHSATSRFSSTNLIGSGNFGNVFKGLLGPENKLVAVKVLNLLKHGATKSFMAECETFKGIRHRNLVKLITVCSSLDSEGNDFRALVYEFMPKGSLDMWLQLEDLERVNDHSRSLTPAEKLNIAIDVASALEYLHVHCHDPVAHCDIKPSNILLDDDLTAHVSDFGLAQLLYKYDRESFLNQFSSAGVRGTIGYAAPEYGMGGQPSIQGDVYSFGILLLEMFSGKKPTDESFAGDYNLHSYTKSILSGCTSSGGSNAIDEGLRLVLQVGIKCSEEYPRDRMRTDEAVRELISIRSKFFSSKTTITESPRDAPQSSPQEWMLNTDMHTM
UniProt Q1MX30, 651-1025 limits assumed: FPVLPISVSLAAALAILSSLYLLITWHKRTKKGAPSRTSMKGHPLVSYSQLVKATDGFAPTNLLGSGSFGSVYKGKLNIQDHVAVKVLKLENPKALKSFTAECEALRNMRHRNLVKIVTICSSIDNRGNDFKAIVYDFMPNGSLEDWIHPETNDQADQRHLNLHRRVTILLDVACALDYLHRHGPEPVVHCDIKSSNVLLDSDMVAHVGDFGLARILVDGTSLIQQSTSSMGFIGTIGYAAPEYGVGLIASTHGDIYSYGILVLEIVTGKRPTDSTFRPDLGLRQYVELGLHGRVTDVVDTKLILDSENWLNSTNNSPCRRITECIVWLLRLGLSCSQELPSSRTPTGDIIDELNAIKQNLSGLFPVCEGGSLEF

Legend:
[1] = target: T1, EFR::XA21 (UniProt C0LGT6+Q1MX30); experiment: MAP kinase activation in Ubi::EFR::XA21::GFP rice leaves; format: cell-based, Arabidopsis/rice (expressed in rice); conditions: 1 μM, 0-60 minutes, anti-p42/44 western blot
[2] = test system: Arabidopsis cell cultures; conditions: read-out: EC50 value (medium alkalization), double alanine substitution control, ref [27]; cited from earlier work
[3] = target: T2, EFR (Arabidopsis thaliana, UniProt C0LGT6); experiment: MAP kinase activation in Ubi::EFR::GFP rice leaves; format: cell-based, Arabidopsis (expressed in rice); conditions: 1 μM, 0-60 minutes, anti-p42/44 western blot
[4] = target: T1, EFR::XA21; experiment: ROS production in Ubi::EFR::XA21::GFP rice leaves (chimeric receptor); format: cell-based, Arabidopsis/rice (expressed in rice); conditions: 100 nM peptide, mature leaves, at least six biological replicates
[5] = target: T2, EFR; experiment: ROS production in Ubi::EFR::GFP rice leaves (EFR with C-terminal GFP); format: cell-based, Arabidopsis (expressed in rice); conditions: 100 nM peptide, mature leaves, at least six biological replicates
[6] = target: T1, EFR::XA21; experiment: Defense marker gene expression (qRT-PCR) in Ubi::EFR::XA21::GFP rice leaves; format: cell-based, Arabidopsis/rice (expressed in rice)
[7] = target: T2, EFR; experiment: Defense marker gene expression (qRT-PCR) in Ubi::EFR::GFP rice leaves; format: cell-based, Arabidopsis (expressed in rice); conditions: 500 nM peptide; 2 and 12 hours; qRT-PCR normalized to actin; EFR::GFP lines

For `CC[C@H](C)[C@H](NC(=O)[C@@H](NC(=O)CNC(=O)[C@@H](NC(=O)[C@H](CC(N)=O)NC(=O)[C@@H](NC(=O)[C@H](Cc1c[nH]cn1)NC(=O)[C@@H]1CCCN1C(=O)[C@H](CCCCN)NC(=O)[C@@H](NC(=O)[C@H](CCCNC(=N)N)NC(=O)[C@H](CCC(=O)O)NC(=O)[C@H](Cc1ccccc1)NC(=O)[C@H](CCCCN)NC(=O)[C@H](C)NC(=O)[C@H](CCCCN)NC(=O)[C@H](C)NC(C)=O)[C@@H](C)O)C(C)C)C(C)C)[C@@H](C)O)C(=O)NCC(=O)O`, the MAP kinase activation [1] is given as “induced MAP kinase activation”, the EC50 [2] is given as 0.2 nM and the MAP kinase activation [3] is given as “induced MAP kinase activation”. The ROS production [4] was “ligand dependent ROS production”, the ROS production [5] was “ligand dependent ROS production” and the “PR10b and Os04g10010 expression” value ([6]; 500 nM peptide, 2 and 12 hours, qRT-PCR normalized to actin, EFR::XA21::GFP lines) was “up-regulated”. For the same compound, the “PR10b expression compared to EFR::GFP expressing lines” value ([6]; 500 nM, Tukey-Kramer HSD) was “higher PR10b expression at 12 hours” and the “PR10b and Os04g10010 expression” value [7] was “up-regulated”.
